Results of single-concentration screens

Source: ChEMBL document CHEMBL3988442, “University of Dundee, Small-Polar-MMV Screening Library” (2021).

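Growth of Mycobacterium tuberculosis over 3 days (7H9 medium with glucose and tyloxapol); the read-out is not stated. Compounds at 50 µM. Higher reads as more growth inhibition (inferred: compounds with an IC50 in retests scored well above the rest). Size under these conditions: about 69,000 compounds, about 760 of them at 50% or above in at least one test.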

The filed quantity is “Percent Effect” (%). The record does not define 0% and 100%; most values in the screen are far below 50% and negative numbers occur (in some assays of this library far below -100). This is part of a subset picked to be rich in strong results. Two or more numbers in one place are separate tests of the same structure; such repeats can differ widely.

SMILES: CCCc1nc(N2CCN(CC)CC2)c2c(n1)c(C)nn2CC
Percent Effect: -23.47

SMILES: CCS(=O)(=O)N1CCCCC1c1nc(C)no1 (configuration not stated)
Percent Effect: 9.511

SMILES: COc1cccc(-c2cc(C(=O)NCCCn3nc(C)cc3C)[nH]n2)c1
Percent Effect: 52.33

SMILES: NC(=O)NC(=O)CCN1CCN(c2nccs2)CC1
Percent Effect: 57.79

SMILES: Cn1ncnc1NCc1ccc(F)cc1
Percent Effect: 4.322

SMILES: COc1cccc2c1OCC(C(=O)N1CCN(C3CCCC3)C(=O)C1)C2 (configuration not stated)
Percent Effect: 61.7

SMILES: CCOc1ccnc(N2CCCN(c3nc(CC)ns3)CC2)n1
Percent Effect: -1.167

SMILES: Cn1c(C2CC2)nc2c1CCN(CCOc1ccc(C#N)cc1)C2
Percent Effect: 17.79

SMILES: Cc1ccc(CN(CCCn2ccnc2)Cc2cnn(C)c2)s1.O=C(O)CC(O)(CC(=O)O)C(=O)O
Percent Effect: 24.54

SMILES: CSc1nnc(N(CCC#N)CCC#N)s1
Percent Effect: -23.45 & -3.07

SMILES: COCc1nc(N2CC[C@H](N(C)C)C2)c2cnn(C)c2n1
Percent Effect: 29.34

SMILES: Cc1cc2nc(C(C)C)cc(NCCNc3ncccc3C)n2n1
Percent Effect: -14.11

SMILES: CC(Cn1cccn1)NCc1nc(-c2cccc(Cl)c2)no1 (configuration not stated)
Percent Effect: 32.43

SMILES: CC(C)c1ccc(CN2CCN(C(=O)c3cc(C4CC4)[nH]n3)CC2)cc1
Percent Effect: -4.413 & -31.98

SMILES: CCNC(=O)N1CCC(=Cc2ccccc2)CC1
Percent Effect: -1.807 & 18.96

SMILES: Cc1nnc(CN(C)C2CCN(c3cccc(-c4cscn4)c3)CC2)o1
Percent Effect: 17.94

SMILES: Clc1cncc(NCc2cccc(COC3CCOCC3)c2)n1
Percent Effect: 23.25 & 22

SMILES: COc1ccnc(N2CCN(C(=O)Cc3ccn(C(C)C)n3)CC2)n1
Percent Effect: 11.43

SMILES: O=C(NC1CC1)c1cnc(-c2noc3cc(N4CCCCC4)ccc23)s1
Percent Effect: -29.9 & -3.89

SMILES: O=C(O)C(F)(F)F.O=C(O)C(F)(F)F.O=C(O)C(F)(F)F.[H][C@]12C[C@@H](CN3CCCC3)N(C(C)C)[C@@]1([H])CCN(Cc1ccoc1)C2
Percent Effect: -13.5 & 71.33

SMILES: Cc1nc(-c2ccc(NCCc3ccc(O)cc3)nc2)[nH]c(=O)c1C
Percent Effect: 70.91

SMILES: CC(C)CN1CCCC2(CCN(c3ccccn3)C2)C1.O=C(O)C(F)(F)F (configuration not stated)
Percent Effect: -22.3

SMILES: COCC(C)NCc1nc(-c2ccc(C)cc2)c(-c2ccccn2)[nH]1 (configuration not stated)
Percent Effect: 30.03

SMILES: CCc1ccc(OCCn2cccn2)cc1
Percent Effect: -17.46 & 21.66

SMILES: Nc1nnnn1NCc1cccc2ccccc12
Percent Effect: 29.6

SMILES: CCc1ncc(-c2cn(CCSc3ncn[nH]3)nn2)cn1
Percent Effect: 71.63

SMILES: COc1cc(C(=O)NCCc2ccccc2OC)on1
Percent Effect: 43.12 & 56.47

SMILES: O=C(Cn1nnn(-c2cccs2)c1=O)N(CC1CCOC1)C1CC1 (configuration not stated)
Percent Effect: -4.54 & -5.325

SMILES: COCCNc1cc(-c2ccccc2CCN)c2cc[nH]c2n1
Percent Effect: 24.08

SMILES: O=C1c2cccnc2OC(CN2CCOCC2)CN1C1CCC1 (configuration not stated)
Percent Effect: 4.551

4 of the entries, repeated:

O=C(Cn1nnn(-c2cccs2)c1=O)N(CC1CCOC1)C1CC1 (configuration not stated) read -4.54% & -5.325%.
CSc1nnc(N(CCC#N)CCC#N)s1 read -23.45% & -3.07%.
CCc1ncc(-c2cn(CCSc3ncn[nH]3)nn2)cn1 read 71.63%.
COc1ccnc(N2CCN(C(=O)Cc3ccn(C(C)C)n3)CC2)n1 read 11.43%.